A mixed list of measured activities; the numbers were collected in NIAID ChemDB.

Inhibition is in % at the dose shown (toxicity tests: loss of growth or viability). MIC bound: limit read from a one-dose screen. An empty or dashed field is not shown. ECn: concentration that inhibits the pathogen or its effect by n%. ICn: concentration for n% inhibition. Rows are shuffled and stem from different studies.

smiles	agent	strain	method	endpoint	target	test	dose	cells	result
O=C1CC(SC(=S)N2CCCCC2)C(=O)N1c1ccccc1	Mycobacterium tuberculosis	ETA-R		MIC		culture			6.4 µg/mL
O=C(CC(=O)c1ccccc1)Nc1ccc(S(=O)(=O)N(c2ccccc2)c2ccccc2)cc1	Mycobacterium tuberculosis	H37Rv		MIC		culture			>100 µg/mL
O=C(Nc1nnc(NCCc2cccs2)s1)c1c(Cl)cccc1Cl	Human cytomegalovirus			IC50	Polymerase	target			<25 µM
NCCNc1ccc([N+](=O)[O-])cc1	Mycobacterium tuberculosis	H37Rv		MIC		culture			100 µg/mL
C[N+]1([O-])[C@@H]2CC[C@H]1CC(O)C2	Mycobacterium tuberculosis	H37Rv	BACTEC	inhibition		culture	12.5 µg/mL		1%
O=C(c1ccccc1)C(C(c1ccccc1)N1CCOCC1)N1CCOCC1	Mycobacterium tuberculosis	H37Rv		MIC		culture			>100 µg/mL
CCOc1ccccc1-c1cncc(N2CCN(c3ccc(C)cc3)CC2)n1	Cytomegalovirus			inhibition	UL97 kinase	target	10 µM		>15%
O=C(Nc1nnc(NC2CCCCCC2)s1)c1ccc2c(c1)C(=O)OC2=O	Human cytomegalovirus			IC50	Polymerase	target			<25 µM
CN(C)c1ccc(/C=N/N=C2c3ccccc3-c3ccccc32)c(Cl)c1	Mycobacterium tuberculosis	H37Rv	BACTEC	inhibition		culture	12.5 µg/mL		-23%
Fc1cc(-c2cncc(N3CCN(c4ccccc4)CC3)n2)ccc1-c1ccccc1	Cytomegalovirus			IC50	UL97 kinase	target			<100 µM
O=C(Nc1ccccc1)C(=O)c1ccccc1C(=O)O	Mycobacterium tuberculosis	H37Rv		MIC		culture			100 µg/mL
CCO/N=C/c1ccc(OCCC2CCN(c3ccc(C)nn3)CC2)cc1	Rhinovirus	33342 (ICAM-1 receptor group 17)	neutral red	EC50		culture		KB	0.008 µM
O=C(O)C(=O)c1ccccc1C(=O)O	Mycobacterium tuberculosis	H37Rv		MIC		culture			>100 µg/mL
O=C1C=CC2(CCC23C=CC(=O)O3)O1	Mycobacterium tuberculosis	H37Rv	BACTEC	MIC		culture			≥12.8 µg/mL
CC(=O)c1cccc(-c2cncc(N3CCN(c4cccc(C(F)(F)F)c4)CC3)n2)c1	Cytomegalovirus			IC50	UL97 kinase	target			<100 µM
CN(C)c1ccc2c(c1)C(=O)c1ccc(N(C)C)cc1C2=O	Mycobacterium tuberculosis	H37Rv		MIC		culture			>100 µg/mL
O=[n+]1c2ccccc2n([O-])c2cc(Cl)ccc21	Mycobacterium tuberculosis	H37Rv	BACTEC	MIC bound		culture			≤12.5 µg/mL
NS(=O)(=O)c1cc([N+](=O)[O-])ccc1Cl	Mycobacterium tuberculosis	H37Rv		MIC		culture			50 µg/mL
Cc1c2cnccc2c(C)c2c1c1ccccc1n2CCNCc1ccccc1	Mycobacterium tuberculosis	H37Rv	resazurin	inhibition		culture	6.25 µg/mL		96%
Cc1ccc(-c2cncc(NCc3ccco3)n2)cc1C	Cytomegalovirus			inhibition	UL97 kinase	target	10 µM		>15%
COc1ccc(CC(=O)O)cc1	Mycobacterium tuberculosis	H37Rv		MIC		culture			>100 µg/mL
CCCCCCCC/C=C/CCCCCCCC(=O)Nc1nnc(NCCCCCCCCCCC)s1	Human cytomegalovirus			IC50	Polymerase	target			<25 µM
C#CC[C@@H](C(=O)N[C@H](/C=C/C(=O)OCC)C[C@@H]1CCNC1=O)n1cccc(NC(=O)c2cc(C)on2)c1=O	Rhinovirus	Serotype 14	cytopathic effect / XTT	EC50		culture		H1-HELA	0.053 µM
COc1cc(Cl)c2c3c(c(C(=O)c4ccccc4)oc13)CCC2	Mycobacterium tuberculosis	H37Rv	BACTEC	MIC bound		culture			>12.5 µg/mL
O=C(/C=C/c1ccccc1Cl)Nc1nnc(NCC2CC2)s1	Human cytomegalovirus			IC50	Polymerase	target			<25 µM
CC1CN(C(=O)/C=C/C(=O)OC2CCCCC2)CCN1C(=O)/C=C/C(=O)OC1CCCCC1	Mycobacterium tuberculosis	H37Rv	BACTEC	MIC		culture			≥12.5 µg/mL
CCCCCCCCCCCNc1nnc(NC(=O)c2ccc(Br)cc2)s1	Human cytomegalovirus			IC50	Polymerase	target			>25 µM
CCCC(NCc1ccccc1)C(N)=O.Cl	Mycobacterium tuberculosis	H37Rv		MIC		culture			>100 µg/mL
CC(C)N(CN1C(=O)N/C(=C\c2cccc(/C=C3/NC(=O)N(CN(C(C)C)C(C)C)C3=O)c2)C1=O)C(C)C	Mycobacterium tuberculosis	H37Rv	BACTEC	inhibition		culture	12.5 µg/mL		14%
Nc1cc(Nc2ccccc2C(=O)[O-])ccn1.[Na+]	Mycobacterium tuberculosis	H37Rv		MIC		culture			>100 µg/mL
CCCCCCCCCCCCCCCCCc1nc2nc(Cl)c(Cl)nc2[nH]1	Mycobacterium tuberculosis	H37Rv	BACTEC	MIC bound		culture			>6.25 µg/mL
O=C(Nc1cc(Cl)ccc1O)c1ccccc1	Mycobacterium tuberculosis	H37Rv		MIC		culture			25 µg/mL
COC1=C2CC(C)CC(OC)C(O)C(C)/C=C(\C)C(OC(N)=O)C(OC)/C=C\C=C(/C)C(=O)NC(=C(C=NN3CCOCC3)C1=O)C2=O	Mycobacterium tuberculosis	H37Rv	BACTEC	MIC		culture			≥12.5 µg/mL
Fc1ccc(N2CCCCC2)c(NC(=S)c2ccncc2)c1			kinase activity	inhibition	Snk	host protein	10 µM		8%
COC(=O)C(=O)C(C)C(=O)C(C)c1nc(NC(=O)Nc2ccc(Cl)cc2)n[nH]1	Mycobacterium tuberculosis	H37Rv	resazurin	MIC bound		culture			>6.25 µg/mL
Cc1ccc(S(=O)(=O)Nc2ccc(N)cc2-c2ccccc2)cc1	Mycobacterium tuberculosis	H37Rv		MIC		culture			>100 µg/mL
Cc1ccc(-c2cncc(N3CCN(c4ccccn4)CC3)n2)cc1	Cytomegalovirus			inhibition	UL97 kinase	target	1 µM		<50%
O=C1c2cccc([N+](=O)[O-])c2C(=O)c2cccc([N+](=O)[O-])c21	Mycobacterium tuberculosis	H37Rv		MIC		culture			>100 µg/mL
Cc1ccc(-c2cncc(N3CCN(c4ccccn4)CC3)n2)cc1C	Cytomegalovirus			IC50	UL97 kinase	target			<10 µM
CCC/C=C/C=C/[C@@H]1C[C@@H](O)[C@@H](O)C(=O)[C@H]1CO	Mycobacterium tuberculosis	H37Rv	BACTEC	MIC bound		culture			>12.5 µg/mL
O=C(Nc1nnc(NCc2cccs2)s1)c1c(Cl)cccc1Cl	Human cytomegalovirus			IC50	Polymerase	target			<25 µM
CC(C)(C)CC(C)(O)CN(CC(C)(O)CC(C)(C)C)C(=S)S	Mycobacterium tuberculosis	KM-R		MIC		culture			12.5 µg/mL
Oc1c(Cl)cc(Cl)cc1Cl	Mycobacterium tuberculosis	H37Rv		MIC		culture			100 µg/mL
Cc1cn([C@H]2C[C@@H]3[C@@H](COC(C)(C)N3O)O2)c(=O)[nH]c1=O	Mycobacterium tuberculosis	H37Rv	BACTEC	MIC bound		culture			>12.5 µg/mL
O=NN1C(=O)c2ccccc2C1=O	Mycobacterium tuberculosis	H37Rv		MIC		culture			>100 µg/mL

3 of the rows above, restated:

smiles,agent,strain,method,endpoint,target,test,dose,cells,result
COC(=O)C(=O)C(C)C(=O)C(C)c1nc(NC(=O)Nc2ccc(Cl)cc2)n[nH]1,Mycobacterium tuberculosis,H37Rv,resazurin,MIC bound,,culture,,,>6.25 µg/mL
Cc1ccc(-c2cncc(N3CCN(c4ccccn4)CC3)n2)cc1C,Cytomegalovirus,,,IC50,UL97 kinase,target,,,<10 µM
NS(=O)(=O)c1cc([N+](=O)[O-])ccc1Cl,Mycobacterium tuberculosis,H37Rv,,MIC,,culture,,,50 µg/mL